Measurements published in US4670540A (Ajinomoto Co., Inc., priority 1984, dated 1987).
Some peptides are written in HELM: one residue between dots, names in brackets for other building blocks, links after the first $.

Assay: general procedure: solution-phase peptide synthesis; WSCI/HOBt

Boc-Ala-Gln-Ser(Bzl)-Gly-Leu-Gly-Asu[Phe-Gly-Gly-Arg(Tos)-Ile-Asp(OChx)-Arg(Tos)-Ile-GlyOH]-Asn-Ser(Bzl)-Phe-Arg(Tos)-Tyr(Cl2 Bzl)-OBzl
step yield (late stage modification step): 94%

Boc-Ala-Gly-Ser(Bzl)-Gly-Leu-GlyAsu[Phe-Gly-Gly-Arg(Tos)-Ile-Asp(OChx)-Arg(Tos)-Ile-Gly-OPac]-Asn-Ser(Bzl)-Phe-Arg(Tos)-Tyr(Cl2 Bzl)-OBzl
step yield (coupling step): 91%

Boc-Phe-Gly-Gly-Arg(Tos)-Ile-Asp(OChx)-Arg(Tos)-Ile-Gly-OPac
step yield (coupling step): 95%

PEPTIDE1{F.G.G.R.I.D.R.I.G.A.Q.S.G.L.G.[Asu].N.S.F.R.Y}$PEPTIDE1,PEPTIDE1,1:R1-16:R3$$$V2.0
step yield (late stage modification step, run 1): 95% | step yield (late stage modification step, run 2): 8%
